## Positions that govern dimerization of the HIV-1 5' RNA

From the data files of Ye et al. 2022, doi:10.1038/s41594-022-00746-2.

The 5' region of HIV-1 NL4-3 RNA (positions 1-437):
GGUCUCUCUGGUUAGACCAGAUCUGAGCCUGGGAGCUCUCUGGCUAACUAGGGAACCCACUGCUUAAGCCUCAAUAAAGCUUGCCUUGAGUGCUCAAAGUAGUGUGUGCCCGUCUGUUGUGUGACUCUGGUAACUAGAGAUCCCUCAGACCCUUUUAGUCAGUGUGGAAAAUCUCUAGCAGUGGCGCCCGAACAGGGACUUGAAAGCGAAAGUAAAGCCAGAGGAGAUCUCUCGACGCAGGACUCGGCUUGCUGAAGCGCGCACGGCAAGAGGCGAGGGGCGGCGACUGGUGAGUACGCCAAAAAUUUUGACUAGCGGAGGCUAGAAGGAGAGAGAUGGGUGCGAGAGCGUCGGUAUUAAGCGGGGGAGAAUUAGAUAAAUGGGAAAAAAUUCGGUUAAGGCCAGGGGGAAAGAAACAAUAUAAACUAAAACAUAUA

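Randomly mutated transcripts starting with one, two or three G (1G, 2G, 3G), capped or uncapped, were folded for 30 min at 37 °C. Monomer and dimer bands were cut from native gels after folding in high salt (300 mM KCl, 5 mM MgCl2) or low salt (40 mM KCl, 0.1 mM MgCl2). Mutation frequencies in the two bands give Kdimer.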

Values are log2 Kdimer, the median over the changes at each position: higher means that changes there hinder dimer formation, below 0 that they favour it. One numbering serves 1G, 2G and 3G. A position is written with its base.

With A149 (domain PBS) the assay gave 1G capped low-salt -0.12; 3G uncapped low-salt -0.31. C150 (domain PBS) gave 1G capped low-salt 0.44; 3G uncapped low-salt 0.54. With C151 (domain PBS) the assay gave 1G capped low-salt -0.16; 3G uncapped low-salt -0.07. With C152 (domain PBS) the assay gave 1G capped low-salt -0.06; 3G uncapped low-salt 0.02. U153 (domain PBS) gave 1G capped low-salt 0.06; 3G uncapped low-salt 0.10. For U154 (domain PBS) the result was 1G capped low-salt -0.03; 3G uncapped low-salt 0.01. U155 (domain PBS) gave 1G capped low-salt -0.03; 3G uncapped low-salt 0.05.

U156 (domain PBS) read 1G capped low-salt -0.24; 3G uncapped low-salt -0.02. A157 (domain PBS) gave 1G capped low-salt -0.01; 3G uncapped low-salt 0.01. With G158 (domain PBS) the assay gave 1G capped low-salt -0.28; 3G uncapped low-salt -0.20. With U159 (domain PBS) the assay gave 1G capped low-salt -0.08; 3G uncapped low-salt -0.03. C160 (domain PBS) read 1G capped low-salt -0.40; 3G uncapped low-salt -0.26. With A161 (domain PBS) the assay gave 1G capped low-salt -0.01; 3G uncapped low-salt 0.11. For G162 (domain PBS) the result was 1G capped low-salt -0.26; 3G uncapped low-salt -0.45.

With U163 (domain PBS) the assay gave 1G capped low-salt 0.12; 3G uncapped low-salt 0.15. For G164 (domain PBS) the result was 1G capped low-salt 0.02; 3G uncapped low-salt 0.09. With U165 (domain PBS) the assay gave 1G capped low-salt -0.02; 3G uncapped low-salt 0.03. G166 (domain PBS) read 1G capped low-salt 0.03; 3G uncapped low-salt -0.14. For G167 (domain PBS) the result was 1G capped low-salt 0.36; 3G uncapped low-salt 0.29. With A168 (domain PBS) the assay gave 1G capped low-salt 0.28; 3G uncapped low-salt 0.38. A169 (domain PBS) gave 1G capped low-salt 0.00; 3G uncapped low-salt 0.05.

For A170 (domain PBS) the result was 1G capped low-salt 0.00; 3G uncapped low-salt 0.03. For A171 (domain PBS) the result was 1G capped low-salt -0.04; 3G uncapped low-salt 0.33. For U172 (domain PBS) the result was 1G capped low-salt 0.48; 3G uncapped low-salt 0.30. C173 (domain PBS) read 1G capped low-salt -0.29; 3G uncapped low-salt -0.46. For U174 (domain PBS) the result was 1G capped low-salt -0.53; 3G uncapped low-salt -0.65. C175 (domain PBS) gave 1G capped low-salt -0.24; 3G uncapped low-salt -0.37.

Excerpt, the final 3 entries:

position,domain,1G capped low-salt,3G uncapped low-salt
C173,PBS,-0.29,-0.46
U174,PBS,-0.53,-0.65
C175,PBS,-0.24,-0.37